The subject of this data set is T1, Zur (Pseudomonas aeruginosa).
T1 sequence (looked up): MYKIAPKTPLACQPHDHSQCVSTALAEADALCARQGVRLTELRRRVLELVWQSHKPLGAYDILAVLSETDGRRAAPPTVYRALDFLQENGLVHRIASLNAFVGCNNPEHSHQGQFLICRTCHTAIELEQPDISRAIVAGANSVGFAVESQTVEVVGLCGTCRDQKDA
As to the kind of experiment: EMSA. The conditions noted are these: 500 nM Zur, 30 uM TPEN (Zn depleted), complete interaction only with Zn, EMSA: 30 ng DNA, 5X Zn-less binding buffer (50 mM Tris, 200 mM KCl, 50 mM MgCl2, 5 mM DTT, 25% glycerol), recombinant protein, residues 1-167, probe letters rebuilt from the primers and the genome. Background: In EMSA bound probe runs differently from free probe, usually more slowly.

Construct, isoform or probe ends are uncertain for at least one entry. Weaker means in comparison with the reference protein, sequence or condition of that experiment. Tags and fusion partners may be left off the protein sequences shown.

As to “ATGGGCCTGGGCGGCGAACGGCAGCAAGACGAGGGCTAACAGCAGTGGGCGCATGAACGGGACTCCGGCAAGGAAGGAAAAGAGTTTGTTACGTTATAACGAATTTTTCCGCCTGCCTAGCCTGGCCGATTTGGCCCCTACGCGCCGACGTGGGAGCATGGCGCGATTCGCTTGTGGAGAAAC (double strand) [pPA4063]”, the binding result is “binds more weakly”.
For “GTGCTGCACACAGACTCTCGTCTTCCAGTCAAGAGCCTTGGGATGCAGACTGTTTTTCAAATCATGACAACTTCTTAACGCGCATTGTTATAAAGTTGCGGGCGTTTGCGCCGGCCTGGCCGGTACCTTCGAGTTTTGCCTGGAGTGAAGATGAGAGTCGACCTGGAC (double strand) [pPA2439]”, the binding result is “binds more weakly”.
Consider “TCGAGCAGCCGAATGGTCGCCGGGAACTCTTTCCGGAGTTGCGAATTATTCTTATCGGAGTAATATGTAACTATATAACATTATGTAGGAGGCATCCCCATGAAACCCGGCATCCATCCCGAATACCGTCCCGTCCTGTTCCATGACACCTCGGCCGACGTGTACTTCCTGATCGGCTCCACC (double strand) [prpmE2]”, for which the binding result was “binds more weakly”.
As to “ACTTTCCCGTTCCTCTTCGCCGGCAGGCATGCGGACATTGCCGCTGCACGTCGGCACGACGCCATGCAGAGTGGCTACGCGGGTCTACCGACACAAAAAGAAATAATATAACATCCCAATAAATACGCCGATCCGACCCCGTCGCCCTTCCTCCGGGAAGGGCCTGGGTTCGCTTTGGCCTGAAAAAAGTCCGACCCA (double strand) [pznuD]”, the binding result was “binds more weakly”.
Consider “CTCTGCCAGACCAGTTCCAGCACGCGCCGCCGCAGTTCGGTCAGGCGCACGCCCTGGCGCGCGCACAGCGCATCGGCCTCGGCCAGCGCGGTGCTGACGCACTGGCTGTGGTCATGGGGCTGGCAGGCCAGCGGGGTCTTGGGCGCAATCTTGTACATGGGCTGCGACGCTCGAGGGTAGAGACGTTATTATATTACCCGCTAACCACCTTTCA (double strand) [pznuA]”, for which the binding result is on record as “binds more weakly”.

Source of the values: paper PMC8531726.
